Measured values from patent EP1228097B1, “ANTIMICROBIAL ACTIVITY OF THE FIRST CATIONIC CLUSTER OF HUMAN LACTOFERRIN” (priority 1999, dated 2005).
Some entries repeat one wording, which the source may state once for all of them.

Amino acid sequences for entries named in this document (tags omitted). A change or cut given only in a name is not applied to a line headed by its entry.
UniProt P02788: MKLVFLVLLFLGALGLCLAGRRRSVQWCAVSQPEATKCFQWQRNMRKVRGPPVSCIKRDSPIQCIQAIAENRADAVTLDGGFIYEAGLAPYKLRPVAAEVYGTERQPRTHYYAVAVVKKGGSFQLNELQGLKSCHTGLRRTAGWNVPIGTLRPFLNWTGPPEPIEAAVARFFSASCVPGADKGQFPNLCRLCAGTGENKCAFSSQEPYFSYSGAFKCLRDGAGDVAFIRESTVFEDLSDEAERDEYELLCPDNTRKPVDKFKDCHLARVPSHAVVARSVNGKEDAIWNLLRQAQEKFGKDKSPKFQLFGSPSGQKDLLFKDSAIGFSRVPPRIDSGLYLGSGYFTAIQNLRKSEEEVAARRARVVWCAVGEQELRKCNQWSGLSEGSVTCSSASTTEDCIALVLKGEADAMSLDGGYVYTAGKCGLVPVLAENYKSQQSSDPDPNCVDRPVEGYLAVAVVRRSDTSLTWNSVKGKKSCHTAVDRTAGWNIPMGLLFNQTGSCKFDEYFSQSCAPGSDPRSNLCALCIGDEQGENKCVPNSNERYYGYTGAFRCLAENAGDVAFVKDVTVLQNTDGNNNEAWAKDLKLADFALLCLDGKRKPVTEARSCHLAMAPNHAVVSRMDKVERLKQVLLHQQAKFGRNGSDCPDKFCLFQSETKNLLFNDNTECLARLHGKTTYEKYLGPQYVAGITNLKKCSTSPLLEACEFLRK

System: bacterial infection
Assay: imaging of a bacterial infection with 99mTc-labelled hLF and related peptides
Type: in vivo, mice
Details: compared with radiolabeled polyclonal human IgG

Row | Substance | visualization of / accumulation at the site of infection (result in words) | visualization of / accumulation at the site of infection (result in words) (listed as HLF(1-11))
1 | GRRRRSVQWCA [hLF(1-11), Mr 1,374] | rapidly accumulate at the site of infection | superior to the other peptides and hLF itself
2 | hLF(2-11): residues 2 to 11 inclusively from the N-terminal region of hLF (RRRSVQWCAV; UniProt P02788 21-30, looked up, fragment) | rapidly accumulate at the site of infection | 
3 | hLF(3-11): synthetic fragment of hLF(1-11): residues 3-11 of hLF (RRSVQWCAV; UniProt P02788 22-30, looked up, fragment) | rapidly accumulate at the site of infection | 
